Pooled drug test results. Numbers come from NIAID ChemDB, via PubChem.

Rows are shuffled and stem from different studies. Percent inhibition refers to the dose given; in toxicity tests it is the harm to the cells. Blank or dashed fields: not listed here. ICn is the concentration giving n% inhibition. ECn is the concentration giving n% inhibition of infection, replication or growth.

compound	strain	test	tested at	species	read-out	cell line	protein	value
CCCCCCCCCCCCC/C=C/[C@@H](O)[C@H](CO[C@@H]1O[C@H](CO)[C@H](O)[C@H](OS(=O)(=O)O)[C@H]1O)NC(=O)CCCCCCCCCCCCCCCCCCCCCCC	H3N8 A/equine/Tennessee/5/86	target	200 µM	Influenza A virus	inhibition		Sialidase	87.9%
Nc1nc(=O)n([C@@H]2C=C(CO)[C@@H](O)[C@H]2O)cc1F	CPX	culture		Cowpox virus	EC50	MK2		0.43 µg/mL
CCCCN(C)C(=O)C(NC(C)=O)[C@H]1CC(C(=O)O)C[C@@H]1N=C(N)N		target		Influenza A virus (H6N2)	IC50		Neuraminidase	2.4 µM
CN(C(=O)Cc1ccc2c(c1)nc(-c1ccoc1)n2C1CCCCC1)[C@H](Cc1c[nH]c2ccccc12)C(=O)O		target		Poliovirus	IC50		RNA-dependent RNA polymerase	>25 µM
CCCCCCCCCCCCCCCCCC(=O)OC[C@@H](COP(=O)(O)OCCNCCO[C@@]1(C(=O)O)O[C@@H]([C@H](O)[C@H](O)CO)[C@H](NC(C)=O)[C@@H](O)[C@H]1F)OC(=O)CCCCCCCCCCCCCCCCC	H10N1 A/DUCK/HK/33/76	target		Influenza A virus	IC50		Sialidase	500 µM
CC(=O)NC(C(=O)N1CCCCCC1)[C@H]1CC(C(=O)O)C[C@@H]1N=C(N)N		target		Influenza A virus (H6N2)	IC50		Neuraminidase	0.99 µM
CCCCCCCCCCCCCCCCCC(=O)OC[C@@H](COP(=O)(O)OCCNCCO[C@@]1(C(=O)O)O[C@@H]([C@H](O)[C@H](O)CO)[C@H](NC(C)=O)[C@@H](O)[C@H]1F)OC(=O)CCCCCCCCCCCCCCCCC	H3N2 A/DUCK/24/5/76	target		Influenza A virus	IC50		Sialidase	100 µM
Nc1ccn(C[C@H]2COP(=O)(O)CO2)c(=O)n1	Isolate JEE	culture		Variola virus	EC50	VERO		7 µg/mL
CCC(NC(=O)c1ccc2c(c1)nc(-c1ccccn1)n2C1CCCCC1)c1ccc(OC)c(OC)c1		target		Poliovirus	IC50		RNA-dependent RNA polymerase	>25 µM
Nc1ccn(C[C@H]2COP(=O)(O)CO2)c(=O)n1		culture		Camelpox virus	EC50	VERO 76		46 µM
CCCCC(CC)NC(=O)C(NC(C)=O)[C@H]1CC(C(=O)O)C[C@@H]1N=C(N)N		target		Influenza A virus (H6N2)	IC50		Neuraminidase	1.8 µM
Nc1ncnc2c1ncn2[C@@H]1C=C(CO)[C@@H](O)[C@H]1O	7124	culture		Variola virus	EC50	VERO		0.03 µg/mL
Cn1cc(C[C@H](NC(=O)c2ccc3c(c2)nc(-c2ccoc2)n3C2CCCCC2)C(=O)O)c2cc(O)ccc21		target		Poliovirus	IC50		RNA-dependent RNA polymerase	>25 µM
NC(=O)c1csc([C@@H]2O[C@H](CO)[C@@H](O)[C@H]2O)n1	Zagazig 501	culture		Rift valley fever virus	EC50	VERO 76		1 µg/mL
O=C(N[C@H](C(=O)O)c1c[nH]c2ccc(O)cc12)c1ccc2c(c1)nc(-c1ccno1)n2C1CCCCC1		target		Poliovirus	IC50		RNA-dependent RNA polymerase	>25 µM
NC(=O)c1csc([C@@H]2O[C@H](CO)[C@@H](O)[C@H]2O)n1	HBL7990	culture		Hantaan virus	EC50	VERO		1.5 µg/mL
O=C(N[C@@H](Cc1c[nH]c2ccc(O)cc12)c1ccncc1)c1ccc2c(c1)nc(-c1ccoc1)n2C1CCCCC1		target		Poliovirus	IC50		RNA-dependent RNA polymerase	>25 µM
CCCCC(C)NC(=O)C(NC(C)=O)[C@H]1CC(C(=O)O)C[C@@H]1N=C(N)N		target		Influenza A virus (H6N2)	IC50		Neuraminidase	8.7 µM
O=C(O)c1cccc(CN2CCCC(NC(=O)c3ccc4c(c3)nc(-c3ccoc3)n4C3CCCCC3)C2)c1		target		Poliovirus	IC50		RNA-dependent RNA polymerase	>25 µM
CCC(COC)NC(=O)C(NC(C)=O)[C@H]1CC(C(=O)O)C[C@@H]1N=C(N)N		target		Influenza A virus (H6N2)	IC50		Neuraminidase	2.2 µM
CC(C)(C)C(=O)OCOP(=O)(COCCn1cnc2c(N)ncnc21)OCOC(=O)C(C)(C)C		culture		Monkeypox virus	EC50	VERO		>100 µg/mL
O=C(N[C@H](CO)C(=O)O)c1ccc2c(c1)nc(-c1ccccn1)n2C1CCCCC1		target		Poliovirus	IC50		RNA-dependent RNA polymerase	>25 µM
Nc1ccn(C[C@@H](CO)OCP(=O)(O)O)c(=O)n1	Isolate 7125	culture		Variola virus	EC50	VERO		12 µg/mL
O=C(O)/C=C/c1ccc(CN2CCC(NC(=O)c3ccc4c(c3)nc(-c3ccoc3)n4C3CCCCC3)C2)cc1		target		Poliovirus	IC50		RNA-dependent RNA polymerase	>25 µM

Repeating the first 3 entries:

{"compound": "CCCCCCCCCCCCC/C=C/[C@@H](O)[C@H](CO[C@@H]1O[C@H](CO)[C@H](O)[C@H](OS(=O)(=O)O)[C@H]1O)NC(=O)CCCCCCCCCCCCCCCCCCCCCCC", "strain": "H3N8 A/equine/Tennessee/5/86", "test": "target", "tested at": "200 µM", "species": "Influenza A virus", "read-out": "inhibition", "protein": "Sialidase", "value": "87.9%"}
{"compound": "Nc1nc(=O)n([C@@H]2C=C(CO)[C@@H](O)[C@H]2O)cc1F", "strain": "CPX", "test": "culture", "species": "Cowpox virus", "read-out": "EC50", "cell line": "MK2", "value": "0.43 µg/mL"}
{"compound": "CCCCN(C)C(=O)C(NC(C)=O)[C@H]1CC(C(=O)O)C[C@@H]1N=C(N)N", "test": "target", "species": "Influenza A virus (H6N2)", "read-out": "IC50", "protein": "Neuraminidase", "value": "2.4 µM"}